Values from PubChem BioAssay AID504761 (Drosophila RNAi Screening Center, 2011)
In all, the deposit lists about 22,000 reagents; this is a random part of those that have a named target and a result. Over the whole deposit, 116 (0.52%) are marked active. 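Calls depend on retest data that are not deposited; infection was ranked per plate without normalising between plates; the unit of the infection score is not given.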 Unmarked entries are inactive. A plus sign joins genes that one reagent is predicted to hit. Further read-outs or replicates are left out here. Not given: the amount of reagent, the time to read-out.

Aim: 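Insect host genes that dengue virus relies on to spread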 (primary screen)
Cells: D.Mel-2 cells from Drosophila
Reagents: long dsRNA against Drosophila genes
Treatment: infection with dengue virus type 2; dose and infection time not stated
Measurement: 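Per well on two replicate plates, imaging gave the percent of cells positive for viral envelope protein, ranked by infection, and a nuclear count of cells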
Reading the numbers: infection score: higher = more virus-infected cells
Rule for the call: 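Very low infection ranking in both replicate wells (chance probability at most 0.065), then a retest showing infection dropped 1.5-fold or more at p below 0.05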
Meaning of the calls: active = confirmed: knock-down lowers infection; inactive = not picked or not confirmed

{"target gene": "Scr (Sex combs reduced)", "dsRNA": "DRSC23141", "infection score, replicate 1": 1.08}
{"target gene": "Scr (Sex combs reduced)", "dsRNA": "DRSC29201", "infection score, replicate 1": 11.7}
{"target gene": "CG14903", "dsRNA": "DRSC15024", "infection score, replicate 1": 6.07}
{"target gene": "CG7156", "dsRNA": "DRSC16207", "infection score, replicate 1": 4.37}
{"target gene": "CG7156", "dsRNA": "DRSC27345", "infection score, replicate 1": 3.88}
{"target gene": "CG4793", "dsRNA": "DRSC01966", "infection score, replicate 1": 20.5}
{"target gene": "CG33339", "dsRNA": "DRSC22917", "infection score, replicate 1": 3.48}
{"target gene": "CG33339", "dsRNA": "DRSC29651", "infection score, replicate 1": 30.6}
{"target gene": "CG4367", "dsRNA": "DRSC15568", "infection score, replicate 1": 4.4}
{"target gene": "Sox14 (Sox box protein 14)", "dsRNA": "DRSC04656", "infection score, replicate 1": 15.3}
{"target gene": "Sox14 (Sox box protein 14)", "dsRNA": "DRSC27025", "infection score, replicate 1": 0.91}
{"target gene": "per (period)", "dsRNA": "DRSC18818", "infection score, replicate 1": 8.75}
{"target gene": "per (period)", "dsRNA": "DRSC26579", "infection score, replicate 1": 11.1}
{"target gene": "CG31380", "dsRNA": "DRSC15688", "infection score, replicate 1": 1.03}
{"target gene": "CG13989", "dsRNA": "DRSC02321", "infection score, replicate 1": 3.11}
{"target gene": "NK7.1", "dsRNA": "DRSC25000", "infection score, replicate 1": 2.55}
{"target gene": "Iswi (Imitation SWI)", "dsRNA": "DRSC07446", "infection score, replicate 1": 7.73}
{"target gene": "Iswi (Imitation SWI)", "dsRNA": "DRSC26047", "infection score, replicate 1": 9.03}
{"target gene": "egr (eiger)", "dsRNA": "DRSC06233", "infection score, replicate 1": 6.8}
{"target gene": "Atg10 + CG18853 + CG12822", "dsRNA": "DRSC20757", "infection score, replicate 1": 1.93}
{"target gene": "Lip4 (Lipase 4)", "dsRNA": "DRSC02930", "infection score, replicate 1": 2.88}

3 entries from above, set out differently.
target gene	dsRNA	infection score, replicate 1
Iswi (Imitation SWI)	DRSC07446	7.73
Iswi (Imitation SWI)	DRSC26047	9.03
egr (eiger)	DRSC06233	6.8
